Results from patent US8470805B2, “Processes for preparing piperazinium salts of KMUP and use thereof” (Kaohsiung Medical University, priority 2009, dated 2013).

Tested on: STZ-induced diabetic rats
Assay: Serum glucose and body weight in streptozosin (STZ)-induced diabetic rats
Type: in vivo
Details: 5 mg/kg orally, after 21 days
Method: 2. The effect of KMUP-1 on decreasing the amount of the serum glucose in streptozosin (STZ)-induced diabetic rats
60 mg/kg of streptozosin is injected intravenously for inducing the STZ-induced rats, and the KMUP-1 HCl salt (0.5, 1.5, 2.5 and 5 mg/kg) and KMUP-1-Simvastatinic acid (5 mg/kg) are administered orally. After 21 days, the amount of the serum glucose (mg/dl), the amount of the serum insulin (mg/dl), the body weight (g) and the change of the body weight are measured.

CCC(C)(C)C(=O)O[C@H]1C[C@@H](C)C=C2C=C[C@H](C)[C@H](CC[C@@H](O)C[C@@H](O)CC(=O)O)[C@H]21.Cn1c(=O)c2c(ncn2CCN2CCN(c3ccccc3Cl)CC2)n(C)c1=O [KMUP-1-Simvastatinic acid, KMUP-1-Simvastatinic acid complex]
Body weight: 311.2 ± 12.6 g
